# Test results taken from patent US12630604B2, “Methods of making chimeric antigen receptor-expressing cells” (Novartis AG, priority 2018, dated 2026).
# Test system: T cells
# Test: T cell culture with cytokines after αCD3/αCD28 bead activation (expansion, size, viability)
# Format: cell-based
# Conditions: after TCR engagement
# Protocol: Previously frozen T cells were thawed and contacted with αCD3/αCD28 dynal beads (cell to bead ratio of 1 to 3) in the presence of indicated cytokines at day 0. From day 3, twice more T cell growth media (RPMI1640, 10% FBS, 2 mM L-glutamin, 100 μM non-essential amino acids, 1 mM sodium pyruvate, 10 mM Hepes, 55 μM β-mercaptoethanol, 10% FBS, and 100 U/ml of penicillin-streptomycin) was added to the plate with indicated cytokines (without cytokine, rhIL2 (501 U/ml, Novartis), IL6 (10 ng/ml, R&D systems), IL7 (10 ng/ml, Peprotech), IL15 (10 ng/ml, Peprotech), and IL21 (10 ng/ml, Peprotech)) at day 3, 5, 6, 9, 12, 15, and 18. Cells treated without cytokine, IL6, or IL21 were cultured until day 18 and cells treated with IL2, IL7, or IL15 were cultured until day 25.
substance,measurement,value
"IL-2: cytokine, rhIL2",cell size and viability,did not affect cell size and viability
